Amino acid sequences for entries named in this document (tags omitted). Residues count along the entry.
UniProt K9N7C7, 3248-3553: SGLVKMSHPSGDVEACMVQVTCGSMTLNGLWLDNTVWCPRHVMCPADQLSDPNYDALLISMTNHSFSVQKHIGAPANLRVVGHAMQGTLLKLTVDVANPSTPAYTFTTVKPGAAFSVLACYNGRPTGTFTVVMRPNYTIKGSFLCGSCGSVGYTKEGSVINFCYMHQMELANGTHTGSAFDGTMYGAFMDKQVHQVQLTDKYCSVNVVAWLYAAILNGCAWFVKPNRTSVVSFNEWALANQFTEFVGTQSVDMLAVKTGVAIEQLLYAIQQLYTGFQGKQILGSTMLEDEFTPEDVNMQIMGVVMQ

In patent US12060333B2 (Hoffmann-La Roche Inc., priority 2021, dated 2024):

What was measured:
[1] = target: MERS-CoV 3CLpro (Middle East respiratory syndrome-related coronavirus, UniProt K9N7C7)
[2] = target: SARS-CoV 3CLpro (Severe acute respiratory syndrome coronavirus, UniProt P0C6X7)

Row | SMILES | IC50 [1] [nM] | IC50 [2] [nM]
1 | Cc1cc(C(=O)N[C@@H](CC23CC(C2)C3)C(=O)NN(C[C@@H]2CCNC2=O)C(=O)[C@H](F)Cl)no1 [Example 71, N-[(1S)-1-(1-bicyclo[1.1.1]pentanylmethyl)-2-[2-[(2R)-2-chloro-2-fluoro-acetyl]-2-[[(3S)-2-axopyrrolidin-3-yl]methyl]hydrazino]-2-axo-ethyl]-5-methyl-isoxazole-3-carboxamide] | 160 | 180
2 | O=C(N[C@@H](CC12CC(C1)C2)C(=O)NN(C[C@@H]1CCNC1=O)C(=O)[C@H](F)Cl)c1cc(C(F)(F)F)on1 [Example 99, N-[(1S)-1-(1-bicyclo[1.1.1]pentanylmethyl)-2-[2-[(2R)-2-chloro-2-fluoro-acetyl]-2-[[(3S)-2-axopyrrolidin-3-yl]methyl]hydrazino]-2-axo-ethyl]-5-(trifluoromethyl)isoxazole-3-carboxamide] | 230 | –
